Here are results for 2 sequences from paper PMC9769707.

The target in this series is T1, Dnr (Pseudomonas aeruginosa PAO1) (UniProt Q51441).
T1 sequence: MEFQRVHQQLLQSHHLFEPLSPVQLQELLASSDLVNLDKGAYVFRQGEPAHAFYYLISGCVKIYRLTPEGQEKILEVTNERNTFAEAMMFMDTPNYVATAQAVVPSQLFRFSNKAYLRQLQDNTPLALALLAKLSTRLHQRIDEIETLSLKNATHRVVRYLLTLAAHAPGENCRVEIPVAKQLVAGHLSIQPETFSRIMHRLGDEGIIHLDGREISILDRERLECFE
Description: EMSA. The note with it: recombinant protein; residues 1-227; protein details: N-terminal His6 (pET28a); probe letters rebuilt from the primers and the genome. Background: A gel shift assay detects complexes by their altered migration in electrophoresis.

On to “GGACCGCCCATCTCGATTAATTTCTCTAACAATTCCCGTGCCAGTCTTTTCGTGGCTCTTTTAATCAATCTCATTCAATGGCTTATTGTTATCCATGTCTCATTCTGAAAAGAAATATAACAAGTGAATTGAGCAAGAAGTTGCGCAGTGCTGTGCAACTTTTTGCGCAGTAGTGTTCAGGCCAGTATTTTCAAGGGCTGTGGACTGTTATTGGGGATGTTTCTTGGTTTTCATTGTGCAACTTCTTGCACAATCGCTATTACGCTCTAAATCAGCTGTTGGTCCGCTTGGAAGGCCTATGTTTCGAGGCTCTCCGGAGAAATCCATACTGCCTGCCTTATTTTTTATAAATTGTTAACTACCTGTTTTGGTAGGGTTTTCCAAATGGCCATCAATGTCGTTATGATGGCTATAGCCAAGCCGTAAAGGGCATGGACGCAGACGCCTGACGTTTGGCTGAAAATCTTTCATTGATTCGTATCAATGAATAGGAAAATTCCCAAAGAGGGAATGTCCTGTTGCTTGCCAGTTTTTATGTTGTTTTCATGGAAAAGGCAAAGAGCTCTTCAGACTATTGGGATTTTCGTTCGGTTTTTATGCCAACTAGTTGAATTGTTAAGATATTCATTGGCGCACATGGTGTGCATTGAAGGGTTAGGATGACCTATTCGAGCAAGCTCTCCTCGCAT (double strand) [hsiA2 promoter fragment]”, for which the binding result was “binds”.
With “GGATACGTTCCTTGTCGTTGAAAGTGCCCAGGCGATATGCCGGGGGCATCGGTGCTAGACAAGAACCGTGCCACTAGTCTTGAAACTCTTTTCCATCAAGGCGTTATTGGGGGAAGCCAAAAATTCGCTGGCGATTCTCATGGGAAGAACACTGAAAATTGCGCAACTTTTTGCGCACCGCTTGCAAAAAGTTGCGCACTCTCTCGGAGCCCTTTGGGTATTTGTTCCCTAGCGTTCTATCCACAACGTTATCAACCAAAAAGTTGCACAGTTCTTCATTGGCAAGGTAGGCGAAGATAGCGCCGCACGGTTTCGTTCCATCGGCCCAGGGTGAAGGAAAGTGAGTTATCGGAGAGGTTGGGGGCTGAAAGATATGGCCAGTTATGGCCAAAAGCCCTCTATGGAGAGGGCTTTTGGGGTAGGGCCAGCAGGGTTGTTCTGCTGCGGGGAACCGGAGGTGCGGTTCTTAGCCTTTCGGCCAAGGC (double strand) [hcp2 promoter fragment]”, the binding result is recorded as “binds”.
